Single amino acid changes in Zika NS2B-NS3 and viral growth

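Mutant virus pools were grown in human Huh-7.5 cells. Sequencing of three replicate libraries (two for positions 207-308) was averaged into one effect per change.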

The scanned region of Zika virus MR766 is shown below (positions 1-308): NS2B is 2-131, NS3 begins at position 132.
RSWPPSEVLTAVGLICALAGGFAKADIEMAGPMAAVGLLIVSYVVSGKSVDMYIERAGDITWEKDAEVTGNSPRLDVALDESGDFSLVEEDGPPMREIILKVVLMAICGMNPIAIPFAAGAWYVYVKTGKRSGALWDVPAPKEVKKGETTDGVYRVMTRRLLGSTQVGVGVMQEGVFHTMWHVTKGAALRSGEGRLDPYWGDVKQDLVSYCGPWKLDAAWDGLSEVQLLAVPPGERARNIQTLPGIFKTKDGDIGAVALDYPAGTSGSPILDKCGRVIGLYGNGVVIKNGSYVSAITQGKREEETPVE

Scale: log2 effect, wild type = 0; the lower, the more harmful to the virus. Each entry names the wild-type residue, its position and the residue put in its place. Six mutants with high scores were retested singly and none clearly outgrew wild type, so positive values are not proof of better growth. An asterisk is a stop codon; stop codons read about -7, near the floor of the assay. Positions 1-103, 104-206 and 207-308 were made and measured as separate libraries. The authors count -1 or higher as tolerated. Position 1 is the last residue of NS2A.

change | effect (log2)
R1A | -8.32
P5C | -1.82
S6H | -0.45
S6K | -4.82
E7K | -6.27
T10M | -4.75
I15A | -4.90
L18Y | -6.28
G20A | -0.49
G21I | -5.38
A23S | -0.71
A25C | 0.85
D26C | -5.48
D26F | -5.43
I27R | -2.84
A30D | -4.37
A30I | -1.09
A35P | -6.24
V36Q | -5.44
L38P | -6.63
V41F | -5.41
V41T | -3.46
V45H | -6.06
V45I | -1.63
S46Q | -1.48
V50E | -5.93
I54* | -7.77
I54R | -7.78
G58H | -5.45
D59K | -5.69
I60A | -5.70
T61C | -0.43
T61E | -0.24
K64H | -0.18
A66P | -7.25
E67K | -4.56
E67W | -5.39
V68Y | -5.75
T69P | -7.63
R74A | -3.01
L75C | -6.50
A78F | 0.43
G83E | -6.25
G83R | -7.87
V88W | -5.72
E90T | -1.80
G92D | -6.35
I98K | -6.12
I99D | -5.51
K101F | -6.83
L104S | -6.06
M105I | -5.52
A106F | -1.53
I107G | -3.57
I115T | -2.07
F117D | -4.95
F117H | -5.59
Y123G | -4.25
Y123N | -6.24
Y123P | -7.04
V124K | -3.80
Y125G | -6.73
K127A | -4.81
G129V | -6.92
K130E | -5.47
R131Q | -6.05
P139V | -5.96
T149A | -3.06
T149I | -2.04
D151F | -3.14
Y154N | -4.79
Y154S | -6.76
M157P | -6.62
M157S | -6.62
T158I | -3.95
T158P | -7.21
R160V | -6.09
L161R | -6.77
L162V | -3.52
S164R | -0.02
S164V | -0.52
G168C | -3.99
G168L | -6.54
V169R | -7.18
G170Y | -5.65
T179I | -5.63
G186C | -2.74
G186P | -5.91
A188M | -4.57
G194P | -7.14
P198W | -6.39
G201* | -8.04
G201I | -4.90
K204Y | -7.20
Q205K | -5.17
S209* | -8.47
P213W | -3.79
L216F | -7.32
A219F | 0.28
E225D | -6.28
V226L | -6.81
L228S | -6.02
V231D | -4.71
I246D | -4.90
T249H | -5.79
I254C | -5.94
G267S | -6.81
S268V | -5.32
L271E | -4.37
V286F | -5.44
I287R | 0.85
N289R | -6.52
Y292F | 1.15
G299A | -4.79
E303N | -1.64
T305A | 0.14

Values reported by Ni et al. 2025 (doi:10.1038/s41467-025-63602-z).